SMILES strings stand for the structures. Only a part is listed here, and it is no random draw. The source made the active and inactive calls. Rule as the data show it: active = inhibition above about 40%; inconclusive = no clear call, values can overlap the other calls; inactive = below that.

In this assay the test system is 7,8-diaminopelargonic acid synthase BioA (Mycobacterium tuberculosis). In words: M. tuberculosis BioA enzyme inhibitors, primary screen, biochemical, plate reader, single point, HTS (AID 602481). The following applies: purified M. tuberculosis BioA enzyme, at 9.99 µM, stronger effect = higher value.
Take `c1ccc(CN2CCC(Nc3ccccc3)CC2)cc1`: the inhibition – broadly, the relative decrease from the control value, in per cent – is inactive: 1.82%.

Take `CCCN1CCC(Nc2cc(OC)cc(OC)c2)CC1`: the inhibition was inactive: -6.91%.

As for `O=c1[nH]c2ccccc2n1C1CCN(C(c2ccccc2)c2nnnn2C2CCCC2)CC1` (centres undefined), the inhibition is inactive: -2.01%.

For `CN(C)C1(CNC(=O)c2cccc(C#N)c2)CCCCC1`, the inhibition is inactive: -2.32%.

`CC(C)(C)n1nnnc1C(c1cccc2ccccc12)N1CCC(n2c(=O)[nH]c3ccccc32)CC1` (centres undefined): the inhibition is inactive: -2.41%.

As to `CC(C)(C)OC(=O)N1CCC(N(C(=O)c2ccccc2)c2ccc(Cl)cc2)CC1`, the inhibition is inactive: -2.96%.

Consider `N#Cc1ccc(C(=O)NCC2(N3CCCCC3)CCCCC2)cc1`, for which the inhibition is inactive: -0.881%.

Consider `N/C(=N\O)c1c(N)no[n+]1[O-]`, for which the inhibition is inactive: 0.544%.

Take `CCOC(=O)N1CCC(Nc2ccc(C)cc2)CC1`: the inhibition is inactive: -0.833%.

Take `COc1cccc(C(c2nnnn2C(C)(C)C)N2CCC(n3c(=O)[nH]c4ccccc43)CC2)c1OC` (centres undefined): the inhibition is inactive: 0.0885%.

Consider `CCCCn1nnnc1C(c1cccc(OC)c1OC)N1CCC(n2c(=O)[nH]c3ccccc32)CC1` (centres undefined), for which the inhibition is inactive: 1.5%.

On to `O=c1[nH]c2ccccc2n1C1CCN(C(c2cccs2)c2nnnn2C2CCCC2)CC1` (centres undefined), for which the inhibition is inactive: 0.23%.

Regarding `O=C(NCC1(N2CCOCC2)CCCCC1)c1cc(Br)ccc1Cl`, the inhibition is inactive: -1.78%.

As to `CCCCn1nnnc1C(c1ccccc1)N1CCC(n2c(=O)[nH]c3ccccc32)CC1` (centres undefined), the inhibition is inactive: 1.68%.

For the compound `COc1cc(C(=O)NCC2(N3CCOCC3)CCCCC2)cc(OC)c1C`, the inhibition was inactive: -0.621%.

Regarding `O=c1[nH]c2ccccc2n1C1CCN(C(c2ccnc3ccccc23)c2nnnn2C2CCCC2)CC1` (centres undefined), the inhibition is inactive: -1.18%.

As to `O=c1[nH]c2ccccc2n1C1CCN(C(c2cccs2)c2nnnn2C2CCCCC2)CC1` (centres undefined), the inhibition was inactive: -1.71%.

`CCC(CO)(C(=O)OC1CN2CCC1CC2)c1ccccc1` (centres undefined): the inhibition is inactive: -0.585%.

`COc1cccc(C(c2nnnn2C2CCCC2)N2CCC(n3c(=O)[nH]c4ccccc43)CC2)c1OC` (centres undefined): the inhibition is inactive: 3.93%.

In the case of `COc1cc(OC)cc(C(=O)NCC2(N3CCOCC3)CCCCC2)c1`, the inhibition was inactive: 0.239%.

As to `COc1cccc(C(=O)N(c2cc(C)cc(C)c2)C2CCN(C(=O)OC(C)(C)C)CC2)c1`, the inhibition is inactive: -1.43%.

For `CN1CCC(Nc2ccc(Cl)cc2)CC1`, the inhibition was inactive: 0.206%.

Take `CCOc1ncccc1C(=O)NCC1(N2CCOCC2)CCCCC1`: the inhibition is inactive: 1.16%.

As to `CN1CCC(Nc2ccc(F)c(Cl)c2)CC1`, the inhibition is inactive: -1.18%.

As to `O=c1[nH]c2ccccc2n1C1CCN(C(c2cc3ccccc3o2)c2nnnn2C2CCCC2)CC1` (centres undefined), the inhibition is inactive: -2.89%.

`O=C(O)C1(Nc2ccccc2)CCN(Cc2ccccc2)CC1`: the inhibition is inactive: 0.0605%.

In the case of `Cc1ccccc1NC1(C#N)CCN(Cc2ccccc2)CC1`, the inhibition is inactive: -1.1%.

For the compound `COc1ccc(C(c2nnnn2C2CCCCC2)N2CCC(n3c(=O)[nH]c4ccccc43)CC2)cc1` (centres undefined), the inhibition was inactive: 0.349%.

`CC(C)(C)n1nnnc1C(c1ccnc2ccccc12)N1CCC(n2c(=O)[nH]c3ccccc32)CC1` (centres undefined): the inhibition was inactive: 7.03%.

As for `O=C(NCC1(N2CCCCC2)CCCCC1)c1ccco1`, the inhibition was inactive: -0.165%.

`Cn1c(=O)[nH]cc(N(CCCl)CCCl)c1=O`: the inhibition is inactive: 8.88%.

As for `COc1cc(OC)cc(C(=O)NCC2(N3CCCCC3)CCCCC2)c1`, the inhibition was inactive: -0.181%.

Consider `O=c1[nH]c2ccccc2n1C1CCN(C(c2ccnc3ccccc23)c2nnnn2C2CCCCC2)CC1` (centres undefined), for which the inhibition was inactive: -1.8%.

Regarding `COc1cccc(C(c2nnnn2C2CCCCC2)N2CCC(n3c(=O)[nH]c4ccccc43)CC2)c1OC` (centres undefined), the inhibition was inactive: -1.11%.

Take `CC(=O)N(c1ccccc1)C1CCNCC1`: the inhibition is inactive: 1.04%.

Regarding `CCC(c1nnnn1C1CCCCC1)N1CCC(n2c(=O)[nH]c3ccccc32)CC1` (centres undefined), the inhibition was inactive: -0.3%.

Consider `Cc1ccc(NC2(C#N)CCN(Cc3ccccc3)CC2)cc1`, for which the inhibition was inactive: -0.063%.

As for `Cc1ccc(C(=O)NCC2(N3CCCCC3)CCCCC2)o1`, the inhibition was inactive: -0.9%.

Turning to `Fc1ccccc1NC1CCN(Cc2ccccc2)CC1`, the inhibition was inactive: -0.366%.

With `O=c1[nH]c2ccccc2n1C1CCN(C(c2ccccc2)c2nnnn2C2CCCCC2)CC1` (centres undefined), the inhibition was inactive: 0.111%.

`O=c1[nH]c2ccccc2n1C1CCN(C(c2cccc3ccccc23)c2nnnn2C2CCCC2)CC1` (centres undefined): the inhibition is inactive: -0.439%.

`CCOC(=O)N1CCC(Nc2cccc(C)c2)CC1`: the inhibition is inactive: 1.48%.

With `COc1cc(C(=O)NCC2(N(C)C)CCCCC2)ccc1OC(F)F`, the inhibition is inactive: -1.46%.

For the compound `CC(C)(C)n1nnnc1C(c1ccccc1)N1CCC(n2c(=O)[nH]c3ccccc32)CC1` (centres undefined), the inhibition is inactive: -1.01%.

As for `O=C1CCN(Cc2ccccc2)CC1`, the inhibition was inactive: 0.404%.

Regarding `O=P1(N(CCCl)CCCl)SCCCS1`, the inhibition was inactive: 0.44%.

Turning to `CCCCn1nnnc1C(c1cc2ccccc2o1)N1CCC(n2c(=O)[nH]c3ccccc32)CC1` (centres undefined), the inhibition is inactive: -2.17%.

For `CCCCOc1ccc(C(=O)NCC2(N3CCOCC3)CCCCC2)cc1`, the inhibition was inactive: -0.883%.

For `O=C(NCC1(N2CCCCC2)CCCCC1)c1ccc(F)cc1`, the inhibition was inactive: 0.948%.

Take `COc1ccc(NC2CCN(CCc3ccccc3)CC2)c(OC)c1`: the inhibition was inactive: 2.12%.

`CCOC(=O)N1CCC(Nc2ccc(F)cc2)CC1`: the inhibition is inactive: 0.467%.

In the case of `O=C(NCC1(N2CCCCC2)CCCCC1)c1ccc(Cl)nc1`, the inhibition is inactive: -2.05%.

In the case of `O=c1[nH]c2ccccc2n1C1CCN(C(c2ccccc2OC(F)(F)F)c2nnnn2C2CCCCC2)CC1` (centres undefined), the inhibition was inactive: -0.237%.

For the compound `Cc1cc(C)cc(N(C(=O)c2ccccc2)C2CCN(C(=O)OC(C)(C)C)CC2)c1`, the inhibition was inactive: 1.56%.

With `CCOC(=O)N1CCC(Nc2ccc(OC)cc2)CC1`, the inhibition is inactive: -1.55%.

As to `CCCCn1nnnc1C(c1ccc(OC)cc1)N1CCC(n2c(=O)[nH]c3ccccc32)CC1` (centres undefined), the inhibition is inactive: -1.98%.

Regarding `O=C(NCC1(N2CCCCC2)CCCCC1)c1ccc(Cl)s1`, the inhibition was inactive: -1.2%.

Regarding `O=C(OC1CN2CCC1CC2)C1c2ccccc2Oc2ccccc21` (centres undefined), the inhibition is inactive: -1.78%.

Take `O=c1[nH]c2ccccc2n1C1CCN(C(c2cc3ccccc3o2)c2nnnn2C2CCCCC2)CC1` (centres undefined): the inhibition is inactive: -1.13%.
